Pooled drug test results. Numbers come from NIAID ChemDB, via PubChem.

All rows: cytotoxicity tests; cells: SupT1; measure: CC50

Neighbouring rows are from separate reports.

{"structure": "COC1=CC(=O)c2c(O)c(C)c3c(c2C1=O)OC(C)C3", "read by": "MTT", "value": "135.2 µg/mL"}
{"structure": "NC(=O)c1c(Cl)c(-c2cccnc2)n2c1CCCC2", "value": "236 µM"}
{"structure": "Cc1ccc(S(=O)(=O)N2CCCN(Cc3ccccc3)CCCN(S(=O)(=O)c3ccc(C)cc3)CC(=O)C2)cc1", "read by": "trypan blue / propidium iodide", "value": ">75 µM"}
{"structure": "CC(C)=CCC/C(C)=C/CC/C(C)=C/Cc1c(O)cc2c(c1OS(=O)(=O)O)CN(CCCC(=O)O)C2=O", "read by": "WST / absorbance", "value": ">100 µM"}
{"structure": "O[C@@H]1[C@H](O)[C@H](O)CO[C@H]1n1c(Br)nc2cc(Cl)c(Cl)cc21", "value": ">102 µM"}
{"structure": "C=C1CN(S(=O)(=O)c2ccc(C)cc2)CCCN(Cc2cccnc2)CCCN(S(=O)(=O)c2ccc(C)cc2)C1", "read by": "trypan blue / propidium iodide", "value": ">75 µM"}
{"structure": "Fc1ccc(OCCC(Cn2ccnc2)c2ccc(Cl)cc2Cl)cc1", "read by": "WST / absorbance", "value": "47.5 µM"}
{"structure": "C=C1CN(S(=O)(=O)c2ccc(C)cc2)CCCN(Cc2ccccc2)CCCN(S(=O)(=O)c2ccc(C)cc2)C1", "value": "142 µM"}
{"structure": "CCC(C)CCCCCCCC[C@@H](O)CC(=O)N[C@@H](CCC(=O)O)C(=O)N[C@@H](CC(C)C)C(=O)N[C@H](CC(C)C)C(=O)N[C@H](C(=O)N[C@@H](CC(=O)O)C(=O)N[C@H](CC(C)C)C(=O)N[C@@H](CC(C)C)C(=O)O)C(C)C", "read by": "WST / absorbance", "value": ">100 µM"}
{"structure": "Nc1ccn(C[C@@H](CO)OCP(=O)(O)O)c(=O)n1", "value": "90 µM"}
{"structure": "Nc1nc2c(ncn2[C@@H]2C[C@H](CO)[C@H]2CO)c(=O)[nH]1", "value": "15 µM"}
{"structure": "C=C1CN(S(=O)(=O)c2ccc(C)cc2)CCCN(C(C)C)CCCN(S(=O)(=O)c2ccc(C)cc2)C1", "read by": "trypan blue / propidium iodide", "value": "75 µM"}
{"structure": "CCCCCCCCCCC[C@@H]1CC(=O)N[C@@H](CCC(=O)O)C(=O)N[C@@H](CC(C)C)C(=O)N[C@H](CC(C)C)C(=O)N[C@@H](C(C)C)C(=O)N[C@@H](CC(=O)O)C(=O)N[C@H](CC(C)C)C(=O)N[C@@H](CC(C)C)C(=O)O1", "read by": "WST / absorbance", "value": ">100 µM"}
{"structure": "C[C@H]1CC[C@@H]2C(C)(C)[C@H](O)CC[C@]2(C)[C@@]12Cc1c(O)cc3c(c1O2)CN(CCCC(=O)O)C3=O", "read by": "WST / absorbance", "value": "100.2 µM"}
{"structure": "CCC(C)CCCCCCC[C@@H]1CC(=O)N[C@@H](CCC(=O)O)C(=O)N[C@@H](CC(C)C)C(=O)N[C@H](CC(C)C)C(=O)N[C@@H](C(C)C)C(=O)N[C@@H](CC(=O)O)C(=O)N[C@H](CC(C)C)C(=O)N[C@@H](C(C)C)C(=O)O1", "read by": "WST / absorbance", "value": "92.9 µM"}
{"structure": "COc1cc(O)c2c(c1)C(=O)C(CC(C)=O)=C(C)C2=O", "read by": "MTT", "value": "94.3 µg/mL"}
{"structure": "CCC(C)CCCCCCCC[C@@H]1CC(=O)N[C@@H](CCC(=O)OC)C(=O)N[C@@H](CC(C)C)C(=O)N[C@H](CC(C)C)C(=O)N[C@@H](C(C)C)C(=O)N[C@@H](CC(=O)O)C(=O)N[C@H](CC(C)C)C(=O)N[C@@H](CC(C)C)C(=O)O1", "read by": "WST / absorbance", "value": "91 µM"}
{"structure": "CC(C)=CCC/C(C)=C/CC/C(C)=C/Cc1c(O)cc2c(c1OS(=O)(=O)O)CN(C[C@@H]1O[C@@H](O)[C@@H](O)[C@H](O)[C@H]1O)C2=O", "read by": "WST / absorbance", "value": ">100 µM"}
{"structure": "CCc1cccn1-c1ccsc1C(=O)O", "read by": "WST / absorbance", "value": "520 µM"}
{"structure": "CC(C)CCCCCCC[C@@H]1CC(=O)N[C@@H](CCC(=O)O)C(=O)N[C@@H](CC(C)C)C(=O)N[C@H](CC(C)C)C(=O)N[C@@H](C(C)C)C(=O)N[C@@H](CC(=O)O)C(=O)N[C@H](CC(C)C)C(=O)N[C@@H](C(C)C)C(=O)O1", "read by": "WST / absorbance", "value": "87 µM"}

A second listing of 2 rows from above:

| structure | read by | value |
|---|---|---|
| CCC(C)CCCCCCC[C@@H]1CC(=O)N[C@@H](CCC(=O)O)C(=O)N[C@@H](CC(C)C)C(=O)N[C@H](CC(C)C)C(=O)N[C@@H](C(C)C)C(=O)N[C@@H](CC(=O)O)C(=O)N[C@H](CC(C)C)C(=O)N[C@@H](C(C)C)C(=O)O1 | WST / absorbance | 92.9 µM |
| CCc1cccn1-c1ccsc1C(=O)O | WST / absorbance | 520 µM |

CCn: concentration that lowers growth or viability of the cells by n%.